According to patent US20070190523A1 (priority 2002, published 2007):
The match of structure and compound is tentative.

How the values were obtained:
84V90M = 84V90M (Human immunodeficiency virus type 1 group M subtype B, UniProt P04585, I572V/L578M); assay: Cell-based assay (MT-4) EC50, 84V90M; design: species or system HIV-1; conditions: read-out: Cell-based assay (MT-4) EC50/nM 84V90M; MT-4, 84V90M
[1] = target: recombinant HIV-1 protease (Human immunodeficiency virus type 1 group M subtype B, UniProt P04585); assay: HIV-1 Protease Enzyme Assay (Ki); assay type: biochemical; conditions: read-out: Enzymatic assay Ki
[2] = tested on: mutant HIV-1 with M46F/I47V/I50V mutations (I50V #1); assay: Resistance Evaluation, I50V #1 fold change; assay type: cell-based; conditions: fold difference in EC50 vs wild type, class symbols; tested form: TFA
[3] = tested on: mutant HIV-1 with I84V/L90M mutations; assay: Resistance Evaluation, I84V/L90M fold change; assay type: cell-based; conditions: fold difference in EC50 vs wild type, class symbols; tested form: TFA

Row | SMILES | EC50 (84V90M) | Ki [1] | I50V (#1) fold change [2] | I84V/L90M fold change [3]
1 | CCOC(=O)C(C)OP(=O)(COc1ccc(C[C@@H]2[C@H](O)[C@@H](O)[C@@H](Cc3ccccc3)N(Cc3ccccc3)C(=O)N2Cc2ccccc2)cc1)Oc1ccccc1 (stereo partly shown) | > 6000 nM | 0.22 nM |  | 
2 | CCOC(=O)[C@H](C)OP(=O)(CCNCc1ccc(C[C@H](NC(=O)O[C@H]2CO[C@H]3OCC[C@H]32)[C@H](O)CN(CC(C)C)S(=O)(=O)c2ccc(OC)cc2)cc1)Oc1ccccc1OCC (stereo partly shown) |  |  | − (≦3) | − (≦3)
